Earlier results as cited in patent US20230331815A1 (priority 2020, published 2023).

How the values were obtained:
SARS-CoV = settings: HeLa cell expressing ACE2 and TMPRSS2; cited from earlier work
HCoV-NL63 = settings: cited from earlier work
COVID-19 infection = settings: two doses of 300 ug/kg with a gap of 3 days, healthcare workers; cited from earlier work

Compound | infection by SARS-CoV (SARS-CoV) | infection by HCoV-NL63 (HCoV-NL63) | reduction of COVID-19 infection (COVID-19 infection) [%]
CN(C)C(=O)COC(=O)Cc1ccc(OC(=O)c2ccc(NC(=N)N)cc2)cc1 [camostat mesylate] | partially blocks infection | partially blocks infection | 
Ivermectin |  |  | 73

Structures can show the parent of a compound that is named as a salt.
